Like-named read-outs stand apart in the source and are kept apart here.
Test system: Salmonella typhimurium TA 1535

| SMILES | Mutagenicity TA 1535 -S9 (Positive Control 1.5 µg/plate) | Mutagenicity TA 1535 +S9 | Mutagenicity TA 1535 -S9 |
| --- | --- | --- | --- |
| [N-]=[N+]=[N-].[Na+] [AZS, sodium azide, reference compound] | + |  |  |
| c1coc(CNc2ncnc3[nH]cnc23)c1 [MB-905, N6-furfurylaminopurine] |  | - | - |
| Nc1ccc2cc3ccccc3cc2c1 [2-AA, 2-aminoanthracene, reference compound] |  | + |  |

Source: paper PMC9837764 (Nature Communications, 2023)
